What was measured:
[1] = target: Nicotinic acetylcholine receptor alpha1/beta1/epsilon/delta (Mus musculus) (UniProt P04756+P09690+P02716+P20782); test: Antagonist activity at mouse alpha1beta1deltaepsilon nACh receptor expressed in Xenopus oocyte assessed as inhibition of acetylcholine-induced response at -70 mV holding potential by measuring ratio of IC50 by voltage-clamp based electrophysiological assay relative to GeXIVA; conditions: filed as antagonist
[2] = Selectivity ratio of IC50 for mouse alpha1beta1deltaepsilon nACh receptor to IC50 for rat alpha9alpha10 nACh receptor

Chains of the proteins cited; added tags and fusions are not shown. Residues count along the entry.
UniProt P04756, 21-457 limits assumed: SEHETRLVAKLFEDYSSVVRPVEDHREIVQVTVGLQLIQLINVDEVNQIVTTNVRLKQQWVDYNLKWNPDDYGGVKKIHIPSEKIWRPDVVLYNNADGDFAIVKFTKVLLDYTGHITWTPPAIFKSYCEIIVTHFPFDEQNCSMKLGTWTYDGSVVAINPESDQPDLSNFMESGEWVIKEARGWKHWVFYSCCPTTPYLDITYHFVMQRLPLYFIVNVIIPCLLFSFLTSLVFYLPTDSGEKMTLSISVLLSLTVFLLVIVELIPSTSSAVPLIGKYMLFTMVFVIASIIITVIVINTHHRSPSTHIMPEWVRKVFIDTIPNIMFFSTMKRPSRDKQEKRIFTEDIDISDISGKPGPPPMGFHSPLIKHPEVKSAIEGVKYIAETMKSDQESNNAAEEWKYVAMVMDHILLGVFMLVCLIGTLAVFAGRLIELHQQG
UniProt P09690, 24-501 partner limits assumed: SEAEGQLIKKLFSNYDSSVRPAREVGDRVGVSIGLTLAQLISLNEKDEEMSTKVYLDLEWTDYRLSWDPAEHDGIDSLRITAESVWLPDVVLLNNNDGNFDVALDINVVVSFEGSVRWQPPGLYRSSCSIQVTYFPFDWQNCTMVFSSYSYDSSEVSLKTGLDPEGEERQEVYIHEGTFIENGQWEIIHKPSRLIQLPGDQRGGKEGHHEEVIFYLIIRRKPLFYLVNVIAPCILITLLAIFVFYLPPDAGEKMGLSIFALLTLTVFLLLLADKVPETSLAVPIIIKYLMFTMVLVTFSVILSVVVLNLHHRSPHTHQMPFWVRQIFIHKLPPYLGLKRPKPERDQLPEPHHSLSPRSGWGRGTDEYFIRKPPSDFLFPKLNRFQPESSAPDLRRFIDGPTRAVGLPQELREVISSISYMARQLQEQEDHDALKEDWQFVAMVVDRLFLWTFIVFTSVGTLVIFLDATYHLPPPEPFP
UniProt P02716, 25-520 partner limits assumed: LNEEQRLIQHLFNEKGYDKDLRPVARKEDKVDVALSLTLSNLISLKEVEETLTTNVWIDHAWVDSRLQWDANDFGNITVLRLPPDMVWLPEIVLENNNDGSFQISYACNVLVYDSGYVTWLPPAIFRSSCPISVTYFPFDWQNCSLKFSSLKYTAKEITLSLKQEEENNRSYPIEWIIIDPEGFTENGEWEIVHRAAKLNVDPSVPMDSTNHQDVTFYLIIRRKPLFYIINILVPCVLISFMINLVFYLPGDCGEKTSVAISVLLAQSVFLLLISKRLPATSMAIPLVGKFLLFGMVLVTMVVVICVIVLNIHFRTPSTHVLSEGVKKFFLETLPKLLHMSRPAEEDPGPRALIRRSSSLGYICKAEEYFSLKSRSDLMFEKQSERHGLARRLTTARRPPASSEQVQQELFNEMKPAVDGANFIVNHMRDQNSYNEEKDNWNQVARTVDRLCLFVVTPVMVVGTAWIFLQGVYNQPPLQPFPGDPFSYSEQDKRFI
UniProt P20782, 21-493 partner limits assumed: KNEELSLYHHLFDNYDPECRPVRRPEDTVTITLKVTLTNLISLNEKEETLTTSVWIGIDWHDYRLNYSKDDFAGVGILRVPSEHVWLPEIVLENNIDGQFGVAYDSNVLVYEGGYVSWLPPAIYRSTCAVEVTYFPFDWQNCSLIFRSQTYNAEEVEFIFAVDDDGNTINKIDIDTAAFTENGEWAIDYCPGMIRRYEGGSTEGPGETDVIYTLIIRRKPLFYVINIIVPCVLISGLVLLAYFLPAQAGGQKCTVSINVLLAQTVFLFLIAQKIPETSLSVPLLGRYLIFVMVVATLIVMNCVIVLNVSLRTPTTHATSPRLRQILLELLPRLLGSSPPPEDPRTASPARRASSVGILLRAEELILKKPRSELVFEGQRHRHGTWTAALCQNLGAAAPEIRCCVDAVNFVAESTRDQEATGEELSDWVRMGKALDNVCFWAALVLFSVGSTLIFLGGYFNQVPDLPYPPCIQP

SMILES | Ratio IC50 [1] | Ratio IC50 [2]
CC[C@H](C)[C@@H]1NC(=O)[C@H](CCCNC(=N)N)NC(=O)[C@H](CCCNC(=N)N)NC(=O)[C@@H](NC(=O)[C@H](Cc2ccc(O)cc2)NC(=O)[C@H](CCCNC(=N)N)NC(=O)[C@H](CCCNC(=N)N)NC(=O)[C@H](C)NC(=O)[C@H](CCCNC(=N)N)NC(=O)[C@H](CC(=O)O)NC(=O)[C@H](Cc2ccc(O)cc2)NC(=O)[C@@H]2CCCN2C(=O)[C@H](CO)NC(=O)[C@H](CCCNC(=N)N)NC(=O)[C@@H]2CSSC[C@H](NC(=O)[C@@H](N)[C@@H](C)O)C(=O)N[C@@H](CCCNC(=N)N)C(=O)N[C@@H](CO)C(=O)N[C@@H](CO)C(=O)NCC(=O)N[C@@H](CCCNC(=N)N)C(=O)N[C@@H](Cc3ccc(O)cc3)C(=O)N2)CSSC[C@@H](C(=O)N[C@H](C(=O)O)C(C)C)NC(=O)[C@H](C)NC(=O)[C@H](CC(=O)O)NC(=O)[C@H]([C@@H](C)O)NC1=O | 6 | 174
CC[C@H](C)[C@@H]1NC(=O)[C@H](CCCNC(=N)N)NC(=O)[C@H](CCCNC(=N)N)NC(=O)[C@@H]2CSSC[C@H](NC(=O)[C@H](Cc3ccc(O)cc3)NC(=O)[C@H](CCCNC(=N)N)NC(=O)CNC(=O)[C@H](CO)NC(=O)[C@H](CO)NC(=O)[C@H](C)NC(=O)[C@@H](NC(=O)[C@@H](N)[C@@H](C)O)CSSC[C@@H](C(=O)N[C@H](C(=O)O)C(C)C)NC(=O)[C@H](C)NC(=O)[C@H](CC(=O)O)NC(=O)[C@H]([C@@H](C)O)NC1=O)C(=O)N[C@@H](CCCNC(=N)N)C(=O)N[C@@H](CO)C(=O)N1CCC[C@H]1C(=O)N[C@@H](Cc1ccc(O)cc1)C(=O)N[C@@H](CC(=O)O)C(=O)N[C@@H](CCCNC(=N)N)C(=O)N[C@@H](CCCNC(=N)N)C(=O)N[C@@H](CCCNC(=N)N)C(=O)N[C@@H](CCCNC(=N)N)C(=O)N[C@@H](Cc1ccc(O)cc1)C(=O)N2 | 2.6 | 58.9

Reference: ChEMBL document CHEMBL5346973 (J Med Chem, 2023)
